Results of unrelated studies side by side (data: NIAID ChemDB).

Common to all: growth or infection tests; organism: Aspergillus niger

MIC50, MIC90 and the like: level of inhibition, or share of isolates inhibited. Neighbouring rows are from separate reports. Two numbers with a dash give a range or band. Blank or dashed fields: not listed here.

structure	read-out	setting	read by	strain	value
O=C(CCN1C(=O)S/C(=C\c2ccccc2Cl)C1=O)Nc1ccc([N+](=O)[O-])cc1	MIC				12.5 µg/mL
C=C1C(=O)O[C@@H]2/C=C(\CO)CCC=C(C)C[C@H](OC(=O)/C(=C/COC(C)=O)CO)[C@@H]12	MFC			ATCC 6275	0.125 µg/mL
c1ccc(Cc2nc(CN3CCc4sccc4C3)n[nH]2)cc1	MIC		agar	NCIM 1196	>200 µg/mL
CCn1sc(=Nc2ccc(Cl)cc2)n(CC)c1=Nc1ccc(Cl)cc1	MIC				20–40 µg/mL
N#Cc1ccc(Nc2nc(Oc3cccc4cccnc34)nc(N3CCCCC3)n2)cc1C(F)(F)F	MIC		agar	MTCC 282	25 µg/mL
OB1OC(N2CCCCC2)c2ccccc21	MIC		turbidity		31.2 µg/mL
Clc1ccc2c(c1)OCC(n1ccnc1)/C2=N\Nc1ccccc1	MIC		agar	PTCC 5012	64 µg/mL
COc1cc(/C=C2/SC(=O)N(CC(=O)Nc3nc4ccc(SC#N)cc4s3)C2=O)ccc1O	MIC		broth dilution / visual reading	MTCC 282	500 µg/mL
CCN=C(Nc1cccc(Cl)c1)N(CC)c1nc2cc(Cl)ccc2s1	MIC				60–80 µg/mL
Cc1cc(Cl)[nH]c2ccc3c(=O)c(C(=O)NN4C(=O)C(Cl)C4c4cccc([N+](=O)[O-])c4O)cnc3c12	MIC		broth dilution		>1000 µg/mL
O=C(CCN1C(=O)S/C(=C\c2ccc(O)c(O)c2O)C1=O)Nc1ccccc1S	MIC				12.5 µg/mL
Cc1ccc(C=NNC(=O)c2cnc3c(ccc4[nH]c(Cl)cc(C)c43)c2=O)cc1	MIC		broth dilution		500 µg/mL
Cc1nc(OCc2nc(-c3ccc(Cl)cc3)n[nH]2)c2ccccc2n1	MIC100			MTCC 282	25 µg/mL
C=C(C(=O)O[C@H]1CC(C)=CCC/C(CO)=C/[C@H]2OC(=O)C(=C)[C@H]12)C(O)CO	MIC			ATCC 6275	0.125 µg/mL
O=C(CCN1C(=O)S/C(=C\c2ccccc2Cl)C1=O)Nc1ccccc1[N+](=O)[O-]	MIC				25 µg/mL
Cc1nc(OCc2nc(-c3ccc(O)cc3)n[nH]2)c2ccccc2n1	MIC100			MTCC 272	25 µg/mL
CC1(C)S[C@@H]2[C@H](NC(=O)[C@H](N)c3ccc(O)cc3)C(=O)N2[C@H]1C(=O)O	MIC		visual reading	MTCC 1349	890 µg/mL
Cc1cc(NC(=O)CCN2C(=O)S/C(=C\c3ccccc3)C2=O)ccc1Cl	MIC				25 µg/mL
CCN=C(Nc1ccc(C)cc1)N(CC)c1nc2ccc(C)cc2s1	MIC				100–120 µg/mL
COc1ccc(-c2n[nH]c(COc3nc(C)nc4ccccc34)n2)cc1OC	MIC100			MTCC 282	12.5 µg/mL
N#Cc1ccc(Nc2nc(Oc3cccc4cccnc34)nc(N3CCOCC3)n2)cc1C(F)(F)F	MIC		agar	MTCC 282	6.25 µg/mL
Cc1[nH]cnc1C(=O)NN=C1SC(CC(=O)O)C(=O)N1c1ccc(F)cc1	MIC		broth dilution	UFPEDA 2003	350 µg/mL
CCCOC(=O)CC(c1nccn1C)c1nccn1C	MIC	48 h	broth dilution	ATCC 16404	>512 µg/mL
N#Cc1ccc(Nc2nc(Oc3cccc4cccnc34)nc(N3CCN(c4ncccn4)CC3)n2)cc1C(F)(F)F	MIC		agar	MTCC 282	12.5 µg/mL
Fc1ccc(-c2n[nH]c(COc3ncnc4ccccc34)n2)cc1	MIC100			MTCC 282	12.5 µg/mL
COc1ccccc1C=NNC(=O)c1cnc2c(ccc3[nH]c(Cl)cc(C)c32)c1=O	MIC		broth dilution		1000 µg/mL
CCn1sc(=Nc2ccc(Br)cc2)n(CC)c1=Nc1ccc(Br)cc1	MIC				60–80 µg/mL
Oc1ccc(-c2n[nH]c(COc3nc(C(F)(F)F)nc4ccccc34)n2)cc1	MIC100			MTCC 282	25 µg/mL
Cc1ccc(NC(=O)CCN2C(=O)S/C(=C\c3ccc(O)c(O)c3O)C2=O)cc1	MIC				50 µg/mL
CCN=C(Nc1ccc(Br)cc1)N(CC)c1nc2ccc(Br)cc2s1	MIC				60–80 µg/mL
Cc1nc(OCc2nc(-c3ccco3)n[nH]2)c2ccccc2n1	MIC100			MTCC 282	6.25 µg/mL
CCCCCOc1ccc(-c2cc(-c3ccc(C(=O)N[C@H]4C[C@@H](O)[C@@H](O)NC(=O)[C@@H]5[C@@H](O)[C@@H](C)CN5C(=O)[C@H]([C@H](O)CC(N)=O)NC(=O)[C@H]([C@H](O)[C@@H](O)c5ccc(O)c(OS(=O)(=O)O)c5)NC(=O)[C@@H]5C[C@@H](O)CN5C(=O)[C@H]([C@@H](C)O)NC4=O)cc3)no2)cc1	MIC50		broth dilution		0.03 µg/mL
N#Cc1ccc(Nc2nc(Oc3cccc4cccnc34)nc(N3CCN(c4cccc(Cl)c4Cl)CC3)n2)cc1C(F)(F)F	MIC		agar	MTCC 282	25 µg/mL
Cc1cc(Cl)[nH]c2ccc3c(=O)c(C(=O)NN=Cc4cccc([N+](=O)[O-])c4O)cnc3c12	MIC		broth dilution		500 µg/mL
CN[C@@H]1[C@H](O[C@H]2[C@H](O[C@H]3[C@H](O)[C@@H](O)[C@H](N=C(N)N)[C@@H](O)[C@@H]3N=C(N)N)O[C@@H](C)[C@]2(O)C=O)O[C@@H](CO)[C@H](O)[C@H]1O	MIC	48 h	broth dilution	ATCC 16404	<4 µg/mL
CC1Oc2ccccc2C(=O)C1n1ccnc1	MIC		agar	PTCC 5012	>64 µg/mL
O=C(CCN1C(=O)S/C(=C\c2ccccc2Br)C1=O)Nc1ccccc1[N+](=O)[O-]	MIC				12.5 µg/mL
C=C[C@]1(C)C[C@H](OC(=O)C(=C)C(O)COC(C)=O)[C@H]2C(=C)C(=O)O[C@@H]2[C@H]1C(=C)CO	MFC			ATCC 6275	0.5 µg/mL
C[C@H]1[C@H](O)[C@@H](C)/C=C/C=C/C=C/C=C/C=C/C=C/C=C/[C@H](O[C@@H]2O[C@H](C)[C@@H](O)[C@H](N)[C@@H]2O)C[C@@H]2O[C@](O)(C[C@@H](O)C[C@@H](O)CC[C@H](O)[C@@H](O)C[C@@H](O)CC(=O)O[C@H]1C)C[C@H](O)[C@H]2C(=O)O	MIC		broth dilution / resazurin		0.98 µg/mL
CCn1sc(=Nc2cccc(C)c2)n(CC)c1=Nc1cccc(C)c1	MIC				120–150 µg/mL
c1ccc(C(c2ccccc2)c2n[nH]c(CN3CCc4sccc4C3)n2)cc1	MIC		agar	NCIM 1196	>200 µg/mL
OB1OC(N2CCOCC2)c2ccccc21	MIC		turbidity		7.8 µg/mL
Nc1ncccc1-c1cc(Cc2ccc(COc3ccccn3)cc2)no1	MIC50		broth dilution		0.03 µg/mL
OB1OC(N2CCN(C3OB(O)c4ccccc43)CC2)c2ccccc21	MIC		turbidity		<0.9 µg/mL
N#CSc1ccc2nc(NC(=O)CN3C(=O)S/C(=C/c4ccccc4)C3=O)sc2c1	MIC		broth dilution / visual reading	MTCC 282	>1000 µg/mL
Fc1ccc(Cc2nc(CN3CCc4sccc4C3)n[nH]2)cc1	MIC		agar	NCIM 1196	12.5 µg/mL
Cc1cc(Cl)[nH]c2ccc3c(=O)c(C(=O)NN=Cc4ccccc4)cnc3c12	MIC		broth dilution		>1000 µg/mL
C=C(C(=O)O[C@H]1CC(C)=CCC/C(CO)=C/[C@H]2OC(=O)C(=C)[C@H]12)C(O)COC(C)=O	MIC			ATCC 6275	0.125 µg/mL
C[n+]1c[nH]cc1-c1ccccc1	MIC	24 h	broth dilution	ATCC 16404	250 µg/mL
CCCCCCN(CCCCCC)c1ccc(/C=C2/SC(=O)NC2=O)cc1	MIC		broth dilution / visual reading	MTCC 282	>1000 µg/mL
FC(F)(F)c1nc(OCc2nc(-c3ccc(Br)cc3)n[nH]2)c2ccccc2n1	MIC100			MTCC 282	12.5 µg/mL
Cc1cc(Cl)[nH]c2ccc3c(=O)c(C(=O)NN4C(=O)C(Cl)C4c4ccccc4O)cnc3c12	MIC		broth dilution		1000 µg/mL
CCN(Cc1ccccc1B(O)O)c1ccccc1	MIC		turbidity		250 µg/mL
CCOc1ccc(N=c2sn(CC)c(=Nc3ccc(OCC)cc3)n2CC)cc1	MIC				20–40 µg/mL
O=C(CCN1C(=O)S/C(=C\c2ccccc2F)C1=O)Nc1ccccc1	MIC				50 µg/mL
O=C1NC(=O)/C(=C\c2ccccc2Cl)S1	MIC		broth dilution / visual reading	MTCC 282	250 µg/mL
Cc1cc(Cl)[nH]c2ccc3c(=O)c(C(=O)NN=Cc4ccccc4O)cnc3c12	MIC		broth dilution		500 µg/mL
N=C(N)c1ccc(OCCCCCCOc2ccc(C(=N)N)cc2)cc1	MIC		agar diffusion / agar	As1	26 µg/mL
CCn1sc(=Nc2cccc(Cl)c2)n(CC)c1=Nc1cccc(Cl)c1	MIC				40–60 µg/mL
C[C@H]1[C@H](O)[C@@H](C)/C=C/C=C/C=C/C=C/C=C/C=C/C=C/[C@H](O[C@@H]2O[C@H](C)[C@@H](O)[C@H](N)[C@@H]2O)C[C@@H]2O[C@](O)(C[C@@H](O)C[C@@H](O)CC[C@H](O)[C@@H](O)C[C@@H](O)CC(=O)O[C@H]1C)C[C@H](O)[C@H]2C(=O)O	MFC		visual reading	ATCC 16404	1 µg/mL
OB(O)c1ccccc1CN1CCOCC1	MIC		turbidity		250 µg/mL